As usually defined, the EC50 is the concentration that produces a half-maximal response.

This passage reports Selectivity index and EC50 results from ChEMBL document CHEMBL1148631, “Synthesis of cyclopentenyl carbocyclic nucleosides as potential antiviral agents against orthopoxviruses and SARS” (J Med Chem, 2006).

The test system of assay [1] is Vaccinia virus. Nature of the assay: Selective index against Vaccinia virus. The assay is classed as functional, Orthopoxvirus vaccinia.
For assay [2], the system named is Cowpox virus. Nature of the assay: Selective index against Cowpox virus. It counts as functional.
The test system of assay [3] is Cowpox virus. Nature of the assay: Antiviral activity against Cowpox virus. The assay is classed as functional, organism-based.

As for `Nc1ccn(C[C@@H](CO)OCP(=O)(O)O)c(=O)n1.O.O`, the Selectivity index in assay [1] is above 52; in assay [2], above 21. In turn, `Nc1ccn(C[C@@H](CO)OCP(=O)(O)O)c(=O)n1` yielded an EC50 in assay [3] of 15 µM. This counts as double-digit micromolar.
